Measured values from several laboratories, pooled; numbers as filed in NIAID ChemDB.

All rows: tests in culture; species: Rhinovirus; endpoint: inhibition

An empty or dashed field is not shown. Two numbers with a dash give a range or band. Inhibition is in % at the dose shown (toxicity tests: loss of growth or viability). Neighbouring rows are from separate reports.

SMILES | strain | dose | read by | cell line | value
Cc1ccccc1Cn1cnc2c(N(C)C)nc(C(F)(F)F)nc21 | Serotype 2 | 8 µM | plaque count | M-HELA | 31%
O=S(=O)(O)c1cc(O)c2c(O)c(N=Nc3ccccc3)c(S(=O)(=O)O)cc2c1 |  | 5 µg/mL | cytopathic effect | Human embryonic lung cells | 50%
Cc1cc(CCCCCCCOc2ccc(C3=NCCO3)cc2)on1 | 17 serotypes | 2.475 µg/mL |  |  | 71%
O=S(=O)(O)c1cccc2c(O)cccc12 |  | 5 µg/mL | cytopathic effect | Human embryonic lung cells | 0%
Cc1cccc(C2=CCN(c3ccc(Cl)nn3)CC2)c1 | 100 serotypes | 2.6 µg/mL |  |  | 71%
CN(C)c1nc(C(F)(F)F)nc2c1ncn2Cc1ccc(Cl)cc1Cl | Serotype 13 | 8 µM | plaque count | M-HELA | 20%
O=S(=O)([O-])c1cc(O)c2ccccc2c1 |  | 10 µg/mL | cytopathic effect | Human amnion AV3 cells | 0%
N#Cc1cc([N+](=O)[O-])ccc1Oc1ccc(Cl)c(Cl)c1 | TYPE 1A | 0.78 µg/mL |  | VERO | 44%
Cc1cc(Cl)ccc1Cn1cnc2c(N(C)C)nc(C(F)(F)F)nc21 | Serotype 21 | 8 µM | plaque count | M-HELA | 22%
CC1(C)COC(c2ccc(OCCN3CCN(c4ccc(Cl)nn4)CC3)cc2)=N1 | 100 serotypes | 0.55 µg/mL |  |  | 18%
O=C(O)Cc1csc(/N=C2\SC[C@@H]3Cc4ccccc4CN23)n1 | Serotype 4 | 7 µg/mL | cytopathic effect | MRC-5 | 80–100%
CSc1ccc(Cn2cnc3c(N(C)C)nc(C(F)(F)F)nc32)cc1 | Serotype 13 | 8 µM | plaque count | M-HELA | 35%
Cc1cccc(C2=CCN(c3ccc(Br)nn3)CC2)c1 | 17 serotypes | 0.016 µg/mL |  |  | 18%
CN(C)c1nc(C(F)(F)F)nc2c1ncn2Cc1ccccc1 | Serotype 31 | 8 µM | plaque count | M-HELA | 37%
Nc1cc(S(=O)(=O)[O-])cc2cc(S(=O)(=O)[O-])ccc12 |  | 10 µg/mL | cytopathic effect | Human amnion AV3 cells | 5%
CCCCCCCCCCCCCCOc1ccc(C(C)=O)o1 | 100 serotypes | 0.091 µg/mL |  |  | 18%
O=S(=O)([O-])c1cc(NS(=O)(=O)c2ccccc2)c2c(S(=O)(=O)[O-])cc(S(=O)(=O)[O-])cc2c1 |  | 5 µg/mL | cytopathic effect | Human amnion AV3 cells | 0%
CS(=O)(=O)c1ccc2c(c1)CCC(c1ccc(Cl)c(Cl)c1)O2 | 100 serotypes | 0.5 µg/mL |  |  | 53%